PubChem BioAssay AID1224833, University of Georgia | 2016
Here is one part, drawn at random, of about 12,000 deposited reagents. About 5,600 of them (46%) were called active. 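Active calls cover z-scores past 1 in both directions, so they include lowered as well as raised rotavirus replication.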 A number with no mark means an inactive call. No sequences are given here.

Purpose: 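Host factors restraining rotavirus as candidate antiviral genes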 (primary screen)
Cells: monkey MA104 kidney cells
Knock-down reagent: siRNA pool against human genes, 50 nM
Timing: 48 h knock-down before infection; read 24 h after infection
Challenge: infection with rotavirus strain RV3 two days after transfection; infectious dose for this stage not given
Measurement: 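z-score of rotavirus antigen signal per well, from a fluorescent immunoassay, relative to non-targeting control wells on the same plate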
Direction: z-score vs non-targeting control: higher = more rotavirus replication than with non-targeting control
Hit rule: In these data the active calls have z-score vs non-targeting control at about -1 or lower, or at about 1 or higher
Meaning of the calls: active = z-score beyond 1 either way; inactive = z-score within 1 of zero

target	z-score vs non-targeting control
MAVS	-1.35 (active)
UGT2B28	-2.07 (active)
SHCBP1L	0.986
WNT9A	-1.86 (active)
PYGB	1.27 (active)
FAM168A	-1.78 (active)
CLEC12B	-2.03 (active)
SLC17A3	-1.06 (active)
NLGN2	-1.19 (active)
TOLLIP	-0.852
ENTPD6	-0.52
HES6	2 (active)
INCENP	0.934
OR5AS1	-0.567
DEFB124	-5.68 (active)
RIF1	2.12 (active)
CCL8	0.249
DNAI7	-1.33 (active)
KATNAL1	1.68 (active)
TOX2	0.852
NANOG	-0.93
OR8D1	0.246
TM9SF4	-0.979
OR2Z1	0.321
DDX3X	-0.287
ZNF707	-2.18 (active)
CLPB	-2.36 (active)
NDUFB9	-0.648
SLC45A3	0.976
SLC5A9	-1.55 (active)
HYDIN	-0.782
INTS6L	1.72 (active)
BRWD3	0.487
MED23	-0.759
WFDC3	-0.797
SSNA1	-3.2 (active)
STAC2	0.577
CDC23	1.39 (active)
TRIM16	0.749
TOX4	0.906
OR10J1	-0.567
TADA1	0.545
XKR8	2.71 (active)
ABCC2	-0.82
SPRY2	0.378
RAD51	-2.5 (active)
TCOF1	-1.53 (active)
CIAO1	1.73 (active)
LMBRD2	-0.6
MPV17	0.0025
NPC1L1	-0.403
TMEM94	-0.351
FDXR	-0.737
SKA2	0.276
OR1K1	0.747
MMS19	-0.635
MBOAT1	-1.29 (active)
SLITRK5	-0.729
CIMAP1C	-1.22 (active)
GNRH1	-1.33 (active)
NBPF14	-1.1 (active)
FBLN2	0.399
DPEP3	2.9 (active)
GTF2A2	1.6 (active)
SUV39H1	-0.538
CMTM5	-0.374
PRUNE2	-0.256
TEKTIP1	0.344
TUBG2	1.38 (active)
CTNND1	-0.681
UQCRB	-2.62 (active)
IFT140	-0.559
POMGNT1	-1.49 (active)
UIMC1	-1.6 (active)
BATF	-1.06 (active)
SFTPD	-0.908
LMLN	1.12 (active)
IL21	-0.212
IFT172	1.2 (active)
CCL18	-1.61 (active)
MLF2	0.268
COQ2	-0.799
TTC19	-1.26 (active)
IL18	-0.557
CXCL1	-2.25 (active)
ZDHHC6	0.175
AVL9	-1.41 (active)
ZDHHC16	2.15 (active)
NFRKB	-0.878
MAMDC2	0.334
AGPAT2	0.646
FLAD1	-1.35 (active)
NPHP3	-1.38 (active)
DPPA4	-1.22 (active)
MYL3	-1.69 (active)
C1QTNF1	0.493
SBSN	-0.791
CHMP4A	-0.224
TIMM8B	-0.383
SLC30A10	0.753
ZPR1	-0.134
SLC24A5	0.568
ATF6	0.675
ST6GALNAC2	-0.571
ADORA2B	3.52 (active)
SUGCT	-1.13 (active)
SLC15A2	0.62
BCKDHA	-0.673
CENPH	-0.0733
SMARCAL1	-1.44 (active)

No new results follow: an excerpt of the list.
target	z-score vs non-targeting control
SHCBP1L	0.986
WNT9A	-1.86 (active)
PYGB	1.27 (active)
FAM168A	-1.78 (active)
CLEC12B	-2.03 (active)
SLC17A3	-1.06 (active)
